Assay results: article PMC12738692, “Identification, characterization, and structure-activity relationship of the ASIC3-selective peptide WRPRFa” (Communications Chemistry, 2025)

The substances below were run against T1, human ASIC3 (acid-sensing ion channel 3) (human) (UniProt Q9UHC3).
T1 sequence: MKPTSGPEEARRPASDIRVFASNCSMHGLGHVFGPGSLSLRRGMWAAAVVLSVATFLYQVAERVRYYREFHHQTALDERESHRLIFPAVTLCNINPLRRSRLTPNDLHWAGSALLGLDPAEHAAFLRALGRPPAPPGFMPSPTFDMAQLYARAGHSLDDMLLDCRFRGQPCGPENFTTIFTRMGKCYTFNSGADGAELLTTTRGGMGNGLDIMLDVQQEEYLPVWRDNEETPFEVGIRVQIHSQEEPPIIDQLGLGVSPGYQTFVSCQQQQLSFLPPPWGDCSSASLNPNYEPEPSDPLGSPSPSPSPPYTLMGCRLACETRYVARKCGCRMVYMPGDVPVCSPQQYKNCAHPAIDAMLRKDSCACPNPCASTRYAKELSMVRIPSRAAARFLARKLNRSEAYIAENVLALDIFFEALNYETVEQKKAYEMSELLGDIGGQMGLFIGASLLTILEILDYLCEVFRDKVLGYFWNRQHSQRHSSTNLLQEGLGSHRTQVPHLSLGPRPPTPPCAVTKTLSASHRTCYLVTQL
Work on ARPRFa (peptide) yielded an I3s/Ipk (geometric mean), 30 µM peptide, pH 6.3, QPatch II of 0.251. In the case of ERPRFa (peptide), the I3s/Ipk (arithmetic mean), 30 µM peptide, pH 6.3, QPatch II is reported as 0.0044. Work on FRPRFa (peptide) yielded an I3s/Ipk (geometric mean), 30 µM peptide, pH 6.3, QPatch II of 0.521. Substance HRPRFa (peptide) has an I3s/Ipk (geometric mean), 30 µM peptide, pH 6.3, QPatch II of 0.166. In the case of IRPRFa (peptide), the I3s/Ipk (geometric mean), 30 µM peptide, pH 6.3, QPatch II is reported as 0.362. RRPRFa (peptide) was tested, and the I3s/Ipk (geometric mean), 30 µM peptide, pH 6.3, QPatch II was 0.174. Substance VRPRFa (peptide) has an I3s/Ipk (geometric mean), 30 µM peptide, pH 6.3, QPatch II of 0.157. Work on WAPRFa (peptide) yielded an I3s/Ipk (geometric mean), 30 µM peptide, pH 6.3, QPatch II of 0.0844. WDPRFa (peptide) gave an I3s/Ipk (geometric mean), 30 µM peptide, pH 6.3, QPatch II of 0.0166. WEPRFa (peptide) was tested, and the I3s/Ipk (geometric mean), 30 µM peptide, pH 6.3, QPatch II was 0.0432. WIPRFa (peptide) was tested, and the I3s/Ipk (geometric mean), 30 µM peptide, pH 6.3, QPatch II was 0.4. WKPRFa (peptide) was tested, and the I3s/Ipk (geometric mean), 30 µM peptide, pH 6.3, QPatch II was 0.583. Work on WMPRFa (peptide) yielded an I3s/Ipk (geometric mean), 30 µM peptide, pH 6.3, QPatch II of 0.248. Work on WRARFa (peptide) yielded an I3s/Ipk (geometric mean), 30 µM peptide, pH 6.3, QPatch II of 0.623. WRGRFa (peptide) was tested, and the I3s/Ipk (geometric mean), 30 µM peptide, pH 6.3, QPatch II was 0.237. WRNRFa (peptide) was tested, and the I3s/Ipk (geometric mean), 30 µM peptide, pH 6.3, QPatch II was 0.395. Substance WRPAFa (peptide) has an I3s/Ipk (geometric mean), 30 µM peptide, pH 6.3, QPatch II of 0.0154. WRPDFa (peptide) was tested, and the I3s/Ipk (geometric mean), 30 µM peptide, pH 6.3, QPatch II was 0.00475. Substance WRPEFa (peptide) has an I3s/Ipk (geometric mean), 30 µM peptide, pH 6.3, QPatch II of 0.00363. Work on WRPIFa (peptide) yielded an I3s/Ipk (geometric mean), 30 µM peptide, pH 6.3, QPatch II of 0.0958. In the case of WRPKFa (peptide), the I3s/Ipk (geometric mean), 30 µM peptide, pH 6.3, QPatch II is reported as 0.167. WRPNFa (peptide) showed an I3s/Ipk (geometric mean), 30 µM peptide, pH 6.3, QPatch II of 0.085. Substance WRPQFa (peptide) has an I3s/Ipk (geometric mean), 30 µM peptide, pH 6.3, QPatch II of 0.0361. WRPRAa (peptide) was tested, and the I3s/Ipk (geometric mean), 30 µM peptide, pH 6.3, QPatch II was 0.201. WRPRF-COOH (peptide) gave an I3s/Ipk (geometric mean), 30 µM peptide, pH 6.3, QPatch II of 0.249. With WRPRFa (peptide) the I3s/Ipk (geometric mean), 30 µM peptide, pH 6.3, QPatch II was 0.806. WRPRHa (peptide) was tested, and the I3s/Ipk (geometric mean), 30 µM peptide, pH 6.3, QPatch II was 0.149. Substance WRPRIa (peptide) has an I3s/Ipk (geometric mean), 30 µM peptide, pH 6.3, QPatch II of 0.619. WRPRWa (peptide) showed an I3s/Ipk (geometric mean), 30 µM peptide, pH 6.3, QPatch II of 0.693. Substance WRPRYa (peptide) has an I3s/Ipk (geometric mean), 30 µM peptide, pH 6.3, QPatch II of 0.554. With WRPR{Cha}a (peptide) the I3s/Ipk (geometric mean), 30 µM peptide, pH 6.3, QPatch II was 0.756. Work on WRPR{Cpg}a (peptide) yielded an I3s/Ipk (geometric mean), 30 µM peptide, pH 6.3, QPatch II of 0.66. Work on WRPR{HomoPhe}a (peptide) yielded an I3s/Ipk (geometric mean), 30 µM peptide, pH 6.3, QPatch II of 0.727. Substance WRPR{Phe(F5)}a (peptide) has an I3s/Ipk (geometric mean), 30 µM peptide, pH 6.3, QPatch II of 0.742. With WRPR{Tic}a (peptide) the I3s/Ipk (geometric mean), 30 µM peptide, pH 6.3, QPatch II was 0.421. In the case of WRP{ADMA}Fa (peptide), the I3s/Ipk (geometric mean), 30 µM peptide, pH 6.3, QPatch II is reported as 0.428. Substance WRP{Arg(Me)}Fa (peptide) has an I3s/Ipk (geometric mean), 30 µM peptide, pH 6.3, QPatch II of 0.656. Work on WRP{Cit}Fa (peptide) yielded an I3s/Ipk (geometric mean), 30 µM peptide, pH 6.3, QPatch II of 0.0228. WRP{HomoArg}Fa (peptide) was tested, and the I3s/Ipk (geometric mean), 30 µM peptide, pH 6.3, QPatch II was 0.744. WRP{SDMA}Fa (peptide) showed an I3s/Ipk (geometric mean), 30 µM peptide, pH 6.3, QPatch II of 0.51. In the case of WRQRFa (peptide), the I3s/Ipk (geometric mean), 30 µM peptide, pH 6.3, QPatch II is reported as 0.355. WRSRFa (peptide) showed an I3s/Ipk (geometric mean), 30 µM peptide, pH 6.3, QPatch II of 0.633. For WR{Tic}RFa (peptide), the I3s/Ipk (geometric mean), 30 µM peptide, pH 6.3, QPatch II was 0.595. In the case of W{Cit}PRFa (peptide), the I3s/Ipk (geometric mean), 30 µM peptide, pH 6.3, QPatch II is reported as 0.18. With W{HomoArg}PRFa (peptide) the I3s/Ipk (geometric mean), 30 µM peptide, pH 6.3, QPatch II was 0.722. For YRPRFa (peptide), the I3s/Ipk (geometric mean), 30 µM peptide, pH 6.3, QPatch II was 0.705. With {Cha}RPRFa (peptide) the I3s/Ipk (geometric mean), 30 µM peptide, pH 6.3, QPatch II was 0.276. With {Cpa}RPRFa (peptide) the I3s/Ipk (geometric mean), 30 µM peptide, pH 6.3, QPatch II was 0.346. {Cpg}RPRFa (peptide) showed an I3s/Ipk (geometric mean), 30 µM peptide, pH 6.3, QPatch II of 0.35. For {HomoPhe}RPRFa (peptide), the I3s/Ipk (geometric mean), 30 µM peptide, pH 6.3, QPatch II was 0.451. Work on {Phe(4-NH2)}RPRFa (peptide) yielded an I3s/Ipk (geometric mean), 30 µM peptide, pH 6.3, QPatch II of 0.436. For {Phe(F5)}RPRFa (peptide), the I3s/Ipk (geometric mean), 30 µM peptide, pH 6.3, QPatch II was 0.213. Work on {Tic}RPRFa (peptide) yielded an I3s/Ipk (geometric mean), 30 µM peptide, pH 6.3, QPatch II of 0.335.

Molecular target: T1, human ASIC3 (acid-sensing ion channel 3) (human)
Remark: another data set of the same source
In the case of WRPRFa (peptide), the EC50 of I3s/Ipk, escalating peptide before pH 6.3, QPatch II is reported as 6.31 µM and the EC50 of I3s/Ipk, escalating peptide before pH 6.3, manual patch clamp is reported as 6.22 µM.

The substances below were run against human ASIC3 E378Q (human) (UniProt Q9UHC3).
WIPRFa (peptide) showed an EC50 of I3s/Ipk, escalating peptide before pH 6.3, manual patch clamp of 20.8 µM. WRPRFa (peptide) showed an EC50 of I3s/Ipk, escalating peptide before pH 6.3, manual patch clamp of 9.59 µM.

These substances were tested against human ASIC3 E416Q (human) (UniProt Q9UHC3).
Substance WIPRFa (peptide) has an EC50 of I3s/Ipk, escalating peptide before pH 6.3, manual patch clamp of 10.3 µM. In the case of WRPRFa (peptide), the EC50 of I3s/Ipk, escalating peptide before pH 6.3, manual patch clamp is reported as 2.47 µM.

What follows are substances tested against human ASIC3 E78Q (human) (UniProt Q9UHC3).
WIPRFa (peptide) gave an EC50 of I3s/Ipk, escalating peptide before pH 6.3, manual patch clamp of 1.66 µM. In the case of WRPRFa (peptide), the EC50 of I3s/Ipk, escalating peptide before pH 6.3, manual patch clamp is reported as 0.206 µM.

Molecular target: T1, human ASIC3 (acid-sensing ion channel 3) (human)
Remark: another data set of the same source
Work on RPRF-COOH (peptide) yielded an I3s/Ipk, 30 µM peptide, pH 6.3, QPatch II of 0.00339. Work on RPRF-p-na (peptide) yielded an I3s/Ipk, 30 µM peptide, pH 6.3, QPatch II of 0.387. RPRFa (peptide) showed an I3s/Ipk, 30 µM peptide, pH 6.3, QPatch II of 0.0476.

Molecular target: T1, human ASIC3 (acid-sensing ion channel 3) (human)
Remark: another data set of the same source
WRPRFa (peptide) was tested, and the I3s/Ipk after 30 µM WRPRFa for 20 s at pH 8.0 (closed state), manual patch clamp was 0.714.

Molecular target: T1, human ASIC3 (acid-sensing ion channel 3) (human)
Remark: another data set of the same source
In the case of WRPRFa (peptide), the I3s/Ipk after 30 µM WRPRFa for 10 s on desensitized channels, manual patch clamp is reported as 0.113.

What follows are substances tested against ASIC131 concatemeric heterotrimer (ASIC1a-ASIC3-ASIC1a in tandem) (human) (UniProt P78348).
WRPRFa (peptide) showed an EC50 of I3s/Ipk, escalating WRPRFa before pH 6.3, manual patch clamp, CHO cells of over 32.4 µM.
